Km data for three substances are collected here from paper PMC3319563 (PLoS ONE, 2012).

This series has as its system CC(C)(OO)c1ccccc1. Put plainly: purified protein. The conditions noted are these: co-substrate GSH.
“AtuGSTH1-1 (Agrobacterium fabrum str. C58; S25A)”: the Km was determined as 17.4 ± 1.61 mM.
Regarding “AtuGSTH1-1 (Agrobacterium fabrum str. C58; F22A)”, the Km came out at 39.6 ± 2.81 mM.
For “AtuGSTH1-1 (Agrobacterium fabrum str. C58; R187A)”, the Km is 3.5 ± 0.66 mM.

The Km is the substrate concentration at which the rate is half of its maximum.
